{"source": "patent US10117871B2", "about": "“3-hydroxypyrimidine-2,4-dione-5-carboxamides as potent inhibitors of HIV” (Regents of the University of Minnesota, priority 2015, dated 2018)", "test_system": "HIV-1IIIB", "assay": "HIV-1 cytoprotection (CPE reduction) antiviral assay", "type": "cell-based", "conditions": "Therapeutic index, defined by CC50/EC50", "method": "The antiviral activity of newly synthesized analogues of chemotype 7 was evaluated against HIV-1IIIB in CEM-SS cells using an assay based on viral cytopathic effect (CPE). In this assay, the reduction of CPE was used to indicate the antiviral activity of a compound.\nBriefly virus and cells were mixed in the presence of test compound and incubated for 6 days. […] Each assay plate contained cell control wells (cells only), virus control wells (cells plus virus), compound toxicity control wells (cells plus compound only), compound colorimetric control wells (compound only) as well as experimental wells (compound plus cells plus virus). Cytoprotection and compound cytotoxicity were assessed by MTS (CellTiter® 96 Reagent, Promega, Madison Wis.) and the EC50 (concentration inhibiting virus replication by 50%), CC50 (concentration resulting in 50% cell death) and a calculated TI (therapeutic index CC50/EC50) were provided. Each assay included AZT as a positive control."}
{"compound": "Cc1cn([C@H]2C[C@H](N=[N+]=[N-])[C@@H](CO)O2)c(=O)[nH]c1=O", "note": "[AZT, reference compound]", "values": [{"measurement": "TI", "value": ">130"}]}
{"compound": "CCNc1[nH]c(=O)n(O)c(=O)c1C(=O)NCc1ccc(F)c(F)c1", "note": "[Compound 7-xx, N-(3,4-Difluorobenzyl)-1-(hydroxy)-4-(ethylamino)-1,2,3,6-tetrahydro-2,6-dioxopyrimidine-5-carboxamide]", "values": [{"measurement": "TI", "value": 430}]}
{"compound": "CCNc1[nH]c(=O)n(O)c(=O)c1C(=O)NCc1cccc(Cl)c1F", "note": "[Compound 7-xxiii, N-(3-Chloro-2-fluorobenzyl)-1-(hydroxy)-4-(ethylamino)-1,2,3,6-tetrahydro-2,6-dioxopyrimidine-5-carboxamide]", "values": [{"measurement": "TI", "value": 1200}]}
{"compound": "CCNc1[nH]c(=O)n(O)c(=O)c1C(=O)NCc1cc(F)ccc1F", "note": "[Compound 7-xvii, N-(2,5-Difluorobenzyl)-1-(hydroxy)-4-(ethylamino)-1,2,3,6-tetrahydro-2,6-dioxopyrimidine-5-carboxamide]", "values": [{"measurement": "TI", "value": 1500}]}
{"compound": "CCNc1[nH]c(=O)n(O)c(=O)c1C(=O)NCc1ccc(C)c(F)c1", "note": "[Compound 7-xxiv, N-(3-Fluoro-4-methylbenzyl)-1-(hydroxy)-4-(ethylamino)-1,2,3,6-tetrahydro-2,6-dioxopyrimidine-5-carboxamide]", "values": [{"measurement": "TI", "value": 130}]}
{"compound": "CCNc1[nH]c(=O)n(O)c(=O)c1C(=O)NCc1ccc(Cl)c(F)c1", "note": "[Compound 7-xxii, N-(4-Chloro-3-fluorobenzyl)-1-(hydroxy)-4-(ethylamino)-1,2,3,6-tetrahydro-2,6-dioxopyrimidine-5-carboxamide]", "values": [{"measurement": "TI", "value": 100}]}
{"compound": "CCNc1[nH]c(=O)n(O)c(=O)c1C(=O)NCc1ccc(F)cc1", "note": "[Compound 7-xvi, N-(4-Fluorobenzyl)-1-(hydroxy)-4-(ethylamino)-1,2,3,6-tetrahydro-2,6-dioxopyrimidine-5-carboxamide]", "values": [{"measurement": "TI", "value": 580}]}
{"compound": "CNc1[nH]c(=O)n(O)c(=O)c1C(=O)NCc1ccccc1", "note": "[Compound 7-v, N-Benzyl-1-(hydroxy)-1,2,3,6-tetrahydro-4-(methylamino)-2,6 dioxopyrimidine-5-carboxamide]", "values": [{"measurement": "TI", "value": 70}]}
{"compound": "CCNc1[nH]c(=O)n(O)c(=O)c1C(=O)NCc1ccccc1", "note": "[Compound 7-vi, N-Benzyl-1-(hydroxy)-4-(ethylamino)-1,2,3,6-tetrahydro-2,6-dioxopyrimidine-5-carboxamide]", "values": [{"measurement": "TI", "value": 380}]}
